Anti-infective test results gathered from many reports (values: NIAID ChemDB through PubChem).

All rows: whole-cell or culture tests; agent: Mycobacterium avium complex; measure: MIC

Conditions beyond the fields shown may differ between rows.

| smiles | strain or isolate | result |
|---|---|---|
| CCn1cc(C(=O)O)c(=O)c2cc(F)c(N3CCN(C)CC3)cc21 | CIPT 14031002 | 20 µg/mL |
| CC[C@H]1OC(=O)[C@H](C)[C@@H](O[C@H]2C[C@@](C)(OC)[C@@H](O)[C@H](C)O2)[C@H](C)[C@@H](O[C@@H]2O[C@H](C)C[C@H](N(C)C)[C@H]2O)[C@](C)(OC)C[C@@H](C)C(=O)[C@H](C)[C@@H](O)[C@]1(C)O | Strain #3 | 1 µg/mL |
| C[C@@H]1CN(c2c(F)c(N)c3c(=O)c(C(=O)O)cn(C4CC4)c3c2F)C[C@H](C)N1 | MO-1 | 1 µg/mL |
| NC[C@H]1O[C@H](O[C@H]2[C@H](O)[C@@H](O[C@H]3O[C@H](CO)[C@@H](O)[C@H](N)[C@H]3O)[C@H](N)C[C@@H]2N)[C@H](O)[C@@H](O)[C@@H]1O | N-259 (HIV-) | 8 µg/mL |
| CO[C@H]1/C=C/O[C@@]2(C)Oc3c(C)c(O)c4c(O)c(c(/C=N/N5CCN(C)CC5)c(O)c4c3C2=O)NC(=O)/C(C)=C\C=C\[C@H](C)[C@H](O)[C@@H](C)[C@@H](O)[C@@H](C)[C@H](OC(C)=O)[C@@H]1C | CIPT 140310012 | 0.1 µg/mL |
| CC[C@H]1OC(=O)[C@H](C)[C@@H](O[C@H]2C[C@@](C)(OC)[C@@H](O)[C@H](C)O2)[C@H](C)[C@@H](O[C@@H]2O[C@H](C)C[C@H](N(C)C)[C@H]2O)[C@](C)(O)C[C@@H](C)C(=O)[C@H](C)[C@@H](O)[C@]1(C)O | 3212 | 64 µg/mL |
| CN[C@@H]1[C@H](O[C@H]2[C@H](O[C@H]3[C@H](O)[C@@H](O)[C@H](N=C(N)N)[C@@H](O)[C@@H]3N=C(N)N)O[C@@H](C)[C@]2(O)C=O)O[C@@H](CO)[C@H](O)[C@H]1O | Isolate C-28 | 400 µg/mL |
| CC[C@H]1OC(=O)[C@H](C)[C@@H](O[C@H]2C[C@@](C)(OC)[C@@H](O)[C@H](C)O2)[C@H](C)[C@@H](O[C@@H]2O[C@H](C)C[C@H](N(C)C)[C@H]2O)[C@](C)(OC)C[C@@H](C)C(=O)[C@H](C)[C@@H](O)[C@]1(C)O | 3215 | 4 µg/mL |
| CCCCCCCCOC1OC(C)C(O[C@@H]2O[C@@H]([C@H](O)CO)[C@H](O)[C@H]2O)C(O)C1O | NJ168 | >128 µg/mL |
| CC(C)N=c1cc2n(-c3ccc(Cl)cc3)c3ccccc3nc-2cc1Nc1ccc(Cl)cc1 | 101 | 3 µg/mL |
| Fc1ccccc1CSc1nc2ccccc2[nH]1 | MY330/88 | 125 µM |
| CO[C@H]1/C=C/O[C@@]2(C)Oc3c(C)c(O)c4c(O)c(c(/C=N/N5CCN(C)CC5)c(O)c4c3C2=O)NC(=O)/C(C)=C\C=C\[C@H](C)[C@H](O)[C@@H](C)[C@@H](O)[C@@H](C)[C@H](OC(C)=O)[C@@H]1C | 3215 | 2 µg/mL |
| c1ccc(CSc2nc3ccccc3[nH]2)cc1 | MY330/88 | 125 µM |
| NCC[C@H](O)C(=O)N[C@@H]1C[C@H](N)[C@@H](O[C@H]2O[C@H](CN)[C@@H](O)[C@H](O)[C@H]2O)[C@H](O)[C@H]1O[C@H]1O[C@H](CO)[C@@H](O)[C@H](N)[C@H]1O | Strain #3 | 2 µg/mL |
| CO[C@H]1/C=C/O[C@@]2(C)Oc3c(C)c(O)c4c(O)c(c5c(c4c3C2=O)NC2(CCN(CC(C)C)CC2)N=5)=NC(=O)/C(C)=C\C=C\[C@H](C)[C@H](O)[C@@H](C)[C@@H](O)[C@@H](C)[C@H](OC(C)=O)[C@@H]1C | LPR | 2 µg/mL |
| CC[C@@H](CO)NCCN[C@@H](CC)CO | 211-5 | 1.9 µg/mL |
| CC1COc2c(N3CCN(C)CC3)c(F)cc3c(=O)c(C(=O)O)cn1c23 | 827/HIV+ | 4 µg/mL |
| Clc1ccc(CSc2nc3ccccc3[nH]2)cc1 | MY330/88 | >16 µM |
| NC[C@H]1O[C@H](O[C@H]2[C@H](O)[C@@H](O[C@H]3O[C@H](CO)[C@@H](O)[C@H](N)[C@H]3O)[C@H](N)C[C@@H]2N)[C@H](O)[C@@H](O)[C@@H]1O | TMC 1467 | <0.01 µg/mL |
| Clc1ccccc1C(c1ccccc1)(c1ccccc1)n1ccnc1 | MO-1 | 0.015 µg/mL |
| CC(C)CSc1nc2ccccc2[nH]1 | MY330/88 | 125 µM |
| NC[C@H]1O[C@H](O[C@H]2[C@H](O[C@@H]3O[C@H](CO)[C@@H](O)[C@H]3O)[C@@H](O)[C@H](N)C[C@@H]2N)[C@H](N)[C@@H](O)[C@@H]1O | TMC 1406 | 0.19 µg/mL |
| CO[C@H]1/C=C/O[C@@]2(C)Oc3c(C)c(O)c4c(O)c(c5c(c4c3C2=O)NC2(CCN(CC(C)C)CC2)N=5)=NC(=O)/C(C)=C\C=C\[C@H](C)[C@H](O)[C@@H](C)[C@@H](O)[C@@H](C)[C@H](OC(C)=O)[C@@H]1C | N-276 | 0.05 µg/mL |
| CC[C@H]1OC(=O)[C@H](C)[C@@H](O[C@H]2C[C@@](C)(OC)[C@@H](O)[C@H](C)O2)[C@H](C)[C@@H](O[C@@H]2O[C@H](C)C[C@H](N(C)C)[C@H]2O)[C@](C)(OC)C[C@@H](C)C(=O)[C@H](C)[C@@H](O)[C@]1(C)O | 101 | 1 µg/mL |
| CC[C@@H](CO)NCCN[C@@H](CC)CO | 804/HIV+ | <2 µg/mL |
| CN[C@@H]1[C@H](O[C@H]2[C@H](O[C@H]3[C@H](O)[C@@H](O)[C@H](N=C(N)N)[C@@H](O)[C@@H]3N=C(N)N)O[C@@H](C)[C@]2(O)C=O)O[C@@H](CO)[C@H](O)[C@H]1O | Isolate 122 | 50 µg/mL |
| CO[C@H]1/C=C/O[C@@]2(C)Oc3c(C)c(O)c4c(O)c(c(/C=N/N5CCN(C/C=C/c6ccccc6)CC5)c(O)c4c3C2=O)NC(=O)/C(C)=C\C=C\[C@H](C)[C@H](O)[C@@H](C)[C@@H](O)[C@@H](C)[C@H](OC(C)=O)[C@@H]1C | CH5 | 0.06 µg/mL |
| NCC[C@H](O)C(=O)N[C@@H]1C[C@H](N)[C@@H](O[C@H]2O[C@H](CN)[C@@H](O)[C@H](O)[C@H]2O)[C@H](O)[C@H]1O[C@H]1O[C@H](CO)[C@@H](O)[C@H](N)[C@H]1O | Isolate 135 | 25 µg/mL |
| CCCCCCSc1nc2ccccc2[nH]1 | MY330/88 | 62 µM |
| CN[C@@H]1[C@@H](O)[C@@H](O[C@@H]2[C@@H](O)[C@H](O[C@H]3O[C@H](CN)CC[C@H]3N)[C@@H](N)C[C@H]2N)OC[C@]1(C)O | TMC 1406 | <0.01 µg/mL |
| CCn1cc(C(=O)O)c(=O)c2cc(F)c(N3CCNCC3)cc21 | CIPT 14031002 | >40 µg/mL |
| NCCC[C@H](N)CC(=O)N[C@H]1CNC(=O)[C@H]([C@H]2C[C@H](O)NC(N)=N2)NC(=O)/C(=C/NC(N)=O)NC(=O)[C@H](CO)NC(=O)[C@H](CO)NC1=O | Isolate 93 | 25 µg/mL |
| O=[N+]([O-])c1cccc(F)c1CSc1nc2ccccc2[nH]1 | MY330/88 | >250 µM |